Data on 15 compounds can be found in article PMC9637228, “Elucidating host cell response pathways and repurposing therapeutics for SARS-CoV-2 and other coronaviruses” (Scientific Reports, 2022).

Data set [1] deals with SARS-CoV-2. The class given is cell-based. The note with it: SARS-CoV-2 in Vero cells.
Data set [2] concerns SARS-CoV-2. The note with it: published preclinical studies; cited from earlier work.
The next data set concerns HCoV-229E. The data set is described as follows: Anti-HCoV-229E compound testing in MRC5 cells (Cell-Titer Glo). The class given is cell-based. Conditions: HCoV-229E in MRC5; ratio of CC50 to EC50. How it is done: (§1) Human lung fibroblast MRC5 cells were cultured in a 96-well plate at 10,000 cells/well in EMEM + 10% FBS overnight. The next day the culture medium was removed from each well and compounds in EMEM + 2% FBS + 0.5% DMSO were added. Each drug was tested on its own 96 well plate. Each plate contained 3 wells of uninfected cells without DMSO, 3 wells of uninfected cells with 0.5% DMSO, 3 wells of infected cells with no DMSO, and 3 wells of infected cells with 0.5% DMSO. Experimental compounds were tested in triplicate at each concentration. Tanespimycin, bortezomib, and homoharringtonine were tested using 2 µM starting concentration, 8-point, threefold serial dilution. After a 1-h pre-incubation with testing compounds, HCoV-229E or HCoV-OC43 viruses at an MOI of 0.01 were added to the culture with compounds for another 1 h. Cell-Titer Glo assay was added after additional incubation time with compounds of interest (HCoV-229E for 96 h and HCoV-OC43 for 120 h). Assay readout was performed using luminescence measurement on a Tecan Spark plate reader.
CC50 values were determined by applying nonlinear fit of luminescence readouts from uninfected, compound-treated wells against compound concentration. Likewise, EC50 values were determined by nonlinear fit of luminescence readouts from virus-infected, compound-treated wells. […] SI calculated as the ratio of CC50 to EC50.

In the next data set the test system is HCoV-OC43. Kind of data set: Anti-HCoV-OC43 compound testing in MRC5 cells (Cell-Titer Glo). The note with it: ratio of CC50 to EC50. The class given is cell-based. How it is done:
as §1
CC50 values were determined by applying nonlinear fit of luminescence readouts from uninfected, compound-treated wells against compound concentration. Likewise, EC50 values were determined by nonlinear fit of luminescence readouts from virus-infected, compound-treated wells. Nonlinear regression models were applied for derivation of EC50 and CC50 values respectively, based on built-in equations of Prism Version 8.2.1 (GraphPad Software, San Diego, CA). SI calculated as the ratio of CC50 to EC50.

Each structure is given as a SMILES string. Structures can show the parent of a compound that is named as a salt. Where two headings read alike, the source gives them in different places.

As to `Cc1nc(Nc2ncc(C(=O)Nc3c(C)cccc3Cl)s2)cc(N2CCN(CCO)CC2)n1` [Dasatinib], the SI index with SARS-CoV-2 [1] (Round 1) turned out to be 0.67.

As for `CC[C@H]1CN2CCc3cc(OC)c(OC)cc3[C@@H]2C[C@@H]1C[C@H]1NCCc2cc(OC)c(OC)cc21` [emetine], in the data set on SARS-CoV-2 [2], the “reported SI index” value is 176.65.

For `O=C(Nc1ccc([N+](=O)[O-])cc1Cl)c1cc(Cl)ccc1O` [Niclosamide], the “reported SI index” value in the data set with SARS-CoV-2 [2] is on record as 178.57.

Consider `O=C(O)c1ccccc1Nc1cccc(OCc2ccc3ccccc3n2)c1` [SR-2640 hydrochloride], for which the SI index in the data set with SARS-CoV-2 [1] (Table 2 test) is on record as 2.06; in the data set with SARS-CoV-2 [1] (Table 2 test, listed as SR-2640), “very poor”.

With `N[C@@H](CC(=O)N1CCn2c(nnc2C(F)(F)F)C1)Cc1cc(F)c(F)cc1F` [Sitagliptin], in the data set with SARS-CoV-2 [1] (Table 2 test), the SI index is listed as 1.00.

Consider `CC(C)C[C@H](NC(=O)[C@H](Cc1ccccc1)NC(=O)c1cnccn1)B(O)O` [Bortezomib], for which the SI index in the data set with SARS-CoV-2 [1] (Round 1) is 35.93; in the data set with SARS-CoV-2 [1] (Round 1, listed as bortezomib), 35.9; with SARS-CoV-2 [1] (Round 2) it was 14.63; in the data set on HCoV-229E, 2; with HCoV-OC43, below 1.

As to `CC(C)c1cc(-c2n[nH]c(=O)n2-c2ccc3c(ccn3C)c2)c(O)cc1O` [Ganetespib], the SI index with SARS-CoV-2 [1] (Round 2) came to 0.82.

In the case of `C=CCNC1=C2C[C@@H](C)C[C@H](OC)[C@H](O)[C@@H](C)/C=C(\C)[C@H](OC(N)=O)[C@@H](OC)/C=C\C=C(/C)C(=O)NC(=CC1=O)C2=O` [Tanespimycin], the results for the SI index in the data set on SARS-CoV-2 [1] (Round 2) and in the data set with HCoV-OC43 were 1.60 and 133, respectively.

Take `COC(=O)C[C@](O)(CCCC(C)(C)O)C(=O)O[C@@H]1C(OC)=C[C@]23CCCN2CCc2cc4c(cc2[C@H]13)OCO4` [Homoharringtonine]: the SI index in the data set with SARS-CoV-2 [1] (Round 1) is reported as 12.84; with SARS-CoV-2 [1] (Round 2), 24.06; in the data set with HCoV-229E, 4; in the data set with HCoV-OC43, 1.

In the data set with SARS-CoV-2 [1] (Table 2 test), `CC[C@@H](C(N)=O)N1CCCC1=O` [Levetiracetam] gave an SI index of 1.00.

Consider `CCOC(=O)C1=C(C)NC(C)=C(C(=O)OCC)C1c1ccccc1/C=C/C(=O)OC(C)(C)C` [Lacidipine], for which the SI index with SARS-CoV-2 [1] (Round 1) is given as 1.35.

Turning to `CC(C)C[C@H](NC(=O)CNC(=O)c1cc(Cl)ccc1Cl)B(O)O` [Ixazomib], the SI index with SARS-CoV-2 [1] (Round 2) is listed as 4.27.

Take `Cc1cccc(C)c1OCC(=O)N[C@@H](Cc1ccccc1)[C@@H](O)C[C@H](Cc1ccccc1)NC(=O)[C@H](C(C)C)N1CCCNC1=O` [Lopinavir]: the SI index with SARS-CoV-2 [1] (Round 2) is 3.70; in the data set with SARS-CoV-2 [1] (Table 2 test), 3.96.

With `CCC(CC)COC(=O)[C@H](C)N[P@](=O)(OC[C@H]1O[C@@](C#N)(c2ccc3c(N)ncnn23)[C@H](O)[C@@H]1O)Oc1ccccc1` [Remdesivir], the SI index in the data set on SARS-CoV-2 [1] (Round 1) is recorded as 4.14; with SARS-CoV-2 [1] (Round 2) it was 6.71; with SARS-CoV-2 [1] (Table 2 test), 5.83.

With `CC(=O)Nc1cccc(-n2c(=O)n(C3CC3)c(=O)c3c(Nc4ccc(I)cc4F)n(C)c(=O)c(C)c32)c1` [Trametinib], the SI index in the data set with SARS-CoV-2 [1] (Round 1) came to 3.34.
